Reference: paper PMC13342644, “Structural basis for transport and inhibition of nucleotide sugar transport in pathogenic fungi” (Nature Communications, 2026)

Molecular target: T1, CaVrg4 Lys356Arg mutant (Candida albicans, UniProt Q5A477, K356R)
T1 sequence (Q5A477 34-371 K356R limits assumed): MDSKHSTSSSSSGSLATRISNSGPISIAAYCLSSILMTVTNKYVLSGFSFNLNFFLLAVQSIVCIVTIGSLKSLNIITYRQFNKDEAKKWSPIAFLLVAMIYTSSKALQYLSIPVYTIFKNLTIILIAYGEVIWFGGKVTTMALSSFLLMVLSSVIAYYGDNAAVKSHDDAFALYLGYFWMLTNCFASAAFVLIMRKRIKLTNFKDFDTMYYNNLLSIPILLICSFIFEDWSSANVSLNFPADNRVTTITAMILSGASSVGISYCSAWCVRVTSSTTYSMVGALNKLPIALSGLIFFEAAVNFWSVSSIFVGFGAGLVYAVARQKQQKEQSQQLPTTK

**Q.** `C[C@@H]1O[C@H](OP(=O)(O)OP(=O)(O)OC[C@H]2O[C@@H](n3cnc4c(=O)[nH]c(N)nc43)[C@H](O)[C@@H]2O)[C@@H](O)[C@H](O)[C@@H]1O` [GDP-fucose] was tested. Which “GDP-fucose recognition, in words” value did it give?
**A.** Its value is “did not improve”.
